Anti-infective test results gathered from many reports (values: NIAID ChemDB through PubChem).

Common to all: growth or infection tests; organism: HIV-1

ECn: concentration that inhibits the pathogen or its effect by n%.

SMILES	read by	measure	strain or isolate	cells	mutations	value
Nc1ccn([C@H]2CC[C@@H](CO)O2)c(=O)n1	-	EC50	NL4-3	MDM	-	0.113 µM
CCC(=O)c1ccc(F)c([C@@H]2C[C@@H]2NC(=O)Nc2ccc(C#N)cn2)c1O	absorbance	EC50	93TH051	PBMC	-	0.0014 µM
CCOC(=O)[C@H](C)NP(=O)(OC[C@@H]1O[C@H](n2cc(C)c(=O)[nH]c2=O)C[C@H]1N=[N+]=[N-])OC[C@H]1O[C@@H](n2cc(C)c(=O)[nH]c2=O)C[C@@H]1N=[N+]=[N-]	cytopathic effect / MTT	EC50	IIIB	MT-4	-	0.35 µM
Nc1ccn([C@H]2CC[C@@H](CO)O2)c(=O)n1	p24	EC50	NL4-3 WT	MT-2	-	0.038 µM
CC(C)CN(C[C@@H](O)[C@H](Cc1ccccc1)NC(=O)[C@H](CC(N)=O)NC(=O)c1ccc2ccccc2n1)C(=O)NC(C)(C)C	p24	EC95	NL4-3	MT-4	PR-M46I	0.2 µM
O=c1[nH]cnc2c1ncn2[C@H]1CC[C@@H](CO)O1	cytopathic effect	EC50	LAV	ATH8	-	<10 µM
Cc1ccnc2c1NC(=O)c1cccnc1N2C1CC1	cytopathic effect / XTT	EC50	NL4-3	CEM + CEM-SS	RT-V106A	>2 µM
Cc1cc(S(N)(=O)=O)ccc1NC(=O)COc1ccc(Cl)cc1C(=O)c1cc(C#N)cc(CO)c1	-	EC50	-	HeLa	WTRVA	0.002 µM
CC[C@H](C)[C@H]1NC(=O)[C@@H](NC(=O)[C@@H](C)N(C)C(=O)[C@@H]2CCCN2C(=O)C(C)=O)[C@@H](C)OC(=O)[C@H](Cc2ccc(OC)cc2)N(C)C(=O)[C@@H]2CCCN2C(=O)[C@H](CC(C)C)NC(=O)[C@@H](C)C(=O)[C@H](C(C)C)OC(=O)C[C@@H]1O	luciferase	EC50	NL4-3	PBMC	-	0.35 µM
CCOC(=O)CCNP(=O)(OC[C@@H]1O[C@H](n2cc(C)c(=O)[nH]c2=O)C[C@H]1N=[N+]=[N-])OC[C@H]1O[C@@H](n2cc(C)c(=O)[nH]c2=O)C[C@@H]1N=[N+]=[N-]	RT activity	EC50	LAI	CEM + CEM TK-	-	64 µM
Cc1cc(OC[C@H]2CNCCO2)ccc1NC(=O)COc1ccc(Cl)cc1C(=O)c1cc(C#N)cc(OC(F)F)c1	-	EC50	-	HeLa	-	0.0003 µM
Nc1nc(NC2CC2)c2ncn([C@H]3C=C[C@@H](CO)C3)c2n1	-	EC50	NL4-3	Jurkat cells	-	0.053 µM
CC[C@H](C)[C@H]1NC(=O)[C@@H](NC(=O)OC(C)(C)C)[C@@H](C)OC(=O)[C@H](Cc2ccc(OC)cc2)N(C)C(=O)[C@@H]2CCCN2C(=O)[C@H](CC(C)C)NC(=O)C(C)(C)NC(=O)C[C@@H]1O	luciferase	EC50	NL4-3	MT-2	-	11.96 µM
O=C1N(Cc2ccc(CO)cc2)[C@H](Cc2ccccc2)[C@H](O)[C@@H](O)[C@@H](Cc2ccccc2)N1Cc1ccc(CO)cc1	p24	EC95	NL4-3	MT-4	PR-L63P	0.1 µM
Cc1cc(C#N)cc(C)c1Oc1nc(Nc2ccc(C#N)cc2)nc(N)c1Br	absorbance	EC50	35764-2	PBMC	-	0.0007 µM
Cc1nc(C)c([C@H](OC(C)(C)C)C(=O)O)c(N2CCC(C3CCCCC3)CC2)c1-c1ccc(C(=O)NCc2ccccc2)cc1	luciferase	EC50	NL4-3	MT-2	-	<0.1 µM
Nc1nc2c(ncn2[C@H]2CC[C@@H](CO)O2)c(=O)[nH]1	cytopathic effect	EC50	LAV	ATH8	-	<10 µM
Cc1cn([C@H]2C=C[C@@H](CO)O2)c(=O)[nH]c1=O	p24	EC50	-	MT-2	RT-K103N	0.19 µM
Cc1cc(S(N)(=O)=O)ccc1NC(=O)COc1ccc(Cl)cc1C(=O)c1cc(C#N)cc(C(=O)N2CCCC2)c1	-	EC50	-	HeLa	Y181C	0.615 µM
O=c1[nH]cnc2c1ncn2[C@H]1CC[C@@H](CO)O1	-	EC50	NL4-3	MT-4	-	1.47 µM
Cc1ccnc2c1NC(=O)c1cccnc1N2C1CC1	plaque count	EC50	RTMC(181 184) (RT 67N K70R Y181C M184V T215F K219Q)	HT4 + HT4 LacZ-1	RT-D67N K70R Y181C M184V T215F K219Q	4.6 µM
Cc1cc(S(N)(=O)=O)ccc1NC(=O)COc1ccc(Cl)cc1C(=O)c1cc(C#N)cc(C(=O)N2CCOCC2)c1	-	EC50	-	HeLa	WTRVA	0.16 µM
Cc1cn([C@H]2C[C@H](N=[N+]=[N-])[C@@H](CO)O2)c(=O)[nH]c1=O	cytopathic effect / XTT	EC50	NL4-3	CEM + CEM-SS	RT-L74V	0.03 µM
C[C@H](Cn1cnc2c(N)ncnc21)OCP(=O)(O)O	-	EC50	NL4-3	MDM	+Vpx	5.599 µM
COC(=O)c1cc(C#N)cc(C(=O)c2cc(Cl)ccc2OCC(=O)Nc2ccc(S(N)(=O)=O)cc2C)c1	-	EC50	-	HeLa	V106A	0.043 µM
Cc1nc(C)c([C@H](OC(C)(C)C)C(=O)O)c(N2CC[C@H]3CCCC[C@H]3C2)c1-c1ccc(OCCc2ccc(F)cc2)cc1	luciferase	EC50	NL4-3	MT-2	-	<0.1 µM
Nc1nc(=O)n([C@H]2CS[C@@H](CO)O2)cc1F	plaque count	EC50	HXB2	HT4 + HT4 LacZ-1	RT-M184V	300 µM
Cc1cc(S(N)(=O)=O)ccc1NC(=O)COc1ccc(Cl)cc1C(=O)c1cc(C#N)cc(C(N)=O)c1	-	EC50	-	HeLa	V106A	>2 µM
c1cc(CN2CCCNCCNCCCNCC2)ccc1CN1CCCNCCNCCCNCC1	p24	EC50	SW12 CLADE C X4	PBMC	-	<0.5 µM
CC[C@H](C)[C@H]1NC(=O)[C@@H](NC(=O)[C@@H](CC(C)C)N(C)S(=O)(=O)c2ccc(C)cc2)[C@@H](C)OC(=O)[C@H](Cc2ccc(OC)cc2)N(C)C(=O)[C@@H]2CCCN2C(=O)[C@H](CC(C)C)NC(=O)[C@H](C(C)C)OC(=O)C[C@@H]1O	luciferase	EC50	JR	PBMC	-	0.016 µM
Cc1cc(S(N)(=O)=O)ccc1NC(=O)COc1ccc(Cl)cc1C(=O)c1cc(C#N)cc(C(=O)O)c1	-	EC50	-	HeLa	K103N	1.3 µM
O=c1[nH]cnc2c1ncn2[C@H]1CC[C@@H](CO)O1	p24	EC50	NL4-3	MT-2	RT-I178L T215Y	0.51 µM
CC[C@H](C)[C@H]1NC(=O)[C@@H](NC(=O)[C@@H](CC(C)C)N(C)C(=O)c2cc3ccccc3s2)[C@@H](C)OC(=O)[C@H](Cc2ccc(OC)cc2)N(C)C(=O)[C@@H]2CCCN2C(=O)[C@H](CC(C)C)NC(=O)[C@H](C(C)C)OC(=O)C[C@@H]1O	-	EC50	NL4-3	PBMC	-	16.7 µM

4 of the rows above, restated:

Nc1nc2c(ncn2[C@H]2CC[C@@H](CO)O2)c(=O)[nH]1 ; read by: cytopathic effect ; measure: EC50 ; strain or isolate: LAV ; cells: ATH8 ; value: <10 µM
Cc1ccnc2c1NC(=O)c1cccnc1N2C1CC1 ; read by: plaque count ; measure: EC50 ; strain or isolate: RTMC(181 184) (RT 67N K70R Y181C M184V T215F K219Q) ; cells: HT4 + HT4 LacZ-1 ; mutations: RT-D67N K70R Y181C M184V T215F K219Q ; value: 4.6 µM
Cc1ccnc2c1NC(=O)c1cccnc1N2C1CC1 ; read by: cytopathic effect / XTT ; measure: EC50 ; strain or isolate: NL4-3 ; cells: CEM + CEM-SS ; mutations: RT-V106A ; value: >2 µM
Cc1nc(C)c([C@H](OC(C)(C)C)C(=O)O)c(N2CC[C@H]3CCCC[C@H]3C2)c1-c1ccc(OCCc2ccc(F)cc2)cc1 ; read by: luciferase ; measure: EC50 ; strain or isolate: NL4-3 ; cells: MT-2 ; value: <0.1 µM

Conditions beyond the fields shown may differ between rows. Blank or dashed fields: not listed here.